Measured values from several laboratories, pooled; numbers as filed in NIAID ChemDB.

Shared fields: whole-cell or culture tests; organism: Candida albicans

ECn: concentration that inhibits the pathogen or its effect by n%.

compound,method,strain or isolate,measure,value
CC1=CC[C@H]2C[C@@H]1C2(C)C,agar diffusion / agar,ATCC 10231,MIC,3125 µg/mL
NC(=S)c1cccc(-c2ccccn2)n1,,17 strains,MIC,12.5 µg/mL
CCCCCCCCCCC(=O)OC1CCN(CC(O)(Cn2cncn2)c2ccc(F)cc2F)CC1,broth dilution,Y0109,MIC80,0.508 µM
Cc1c(O)cccc1C(=O)N[C@@H](CSc1ccccc1)[C@H](O)CN1C[C@H]2CCCC[C@H]2C[C@H]1C(=O)NC(C)(C)C,,I152A,MIC,64 µg/mL
N#Cc1ccc(/C=C/C(=O)OC2CCN(CC(O)(Cn3cncn3)c3ccc(F)cc3F)CC2)cc1,broth dilution,Y0109,MIC80,0.032 µM
O[C@](Cn1cncn1)(Cn1cnc(/C=C/c2ccc(OCC(F)(F)C(F)F)cc2)n1)c1ccc(F)cc1F,,10 isolates fluconazole-resistant,MIC,0.03–1 µg/mL
COc1ccc(-c2oc3ccc(C)cc3c2C(=O)c2ccccc2Br)cc1,broth dilution,,EC80,>200 µg/mL
COC(=O)/C(C)=C1\C(=O)[C@H](O)[C@]2(C)C3=C(C[C@@H]4[C@]5(OC(=O)C6=C5C[C@H]5[C@](O)(COC(=O)/C(C)=C/COC(=O)CCC(=O)OC6)[C@H]6C[C@H]6[C@]45C)[C@H]31)[C@H]1C[C@H]12,broth dilution,ATCC 90028,MIC,4 µg/mL
COc1cccc(C2=CC(C)OC2=O)c1,,ATCC 44859,MIC,62.5 µM
CCCCC/C=C/C=C/C(O)C/C=C/C=C/C(=O)OC1C(O)C(c2c(O)cc(O)cc2CO)OC(CO)C1OC1OC(C(O)COC(=O)/C=C/C=C\CCC(O)CC)C(O)C1O,,C-A-24,MIC,0.39 µg/mL
COc1ccc(-c2oc3ccc(C)cc3c2C(=O)c2cc(F)c(F)cc2Br)cc1,broth dilution,,EC80,>200 µg/mL
N#Cc1c(-c2ccc([N+](=O)[O-])cc2)cc(-c2cc3cc(F)ccc3oc2=O)nc1NS(=O)(=O)c1ccccc1,turbidity,MTCC 227,MIC,1000 µg/mL
Cc1coc2c1C(=O)[C@@H]1[C@](C)([C@H](O)CC[C@@]1(C)O)[C@@H]2O,broth dilution,ATCC 90028,MIC,16 µg/mL
CC1C=C(c2ccc(Cl)cc2Cl)C(=O)O1,,ATCC 44859,MIC,31.25 µM
Oc1cc2ccccc2cc1-c1n[nH]c(=S)n1-c1ccc(F)cc1,,ATCC 2091,MIC,250 µg/mL
CCC1C=C(c2cccnc2)C(=O)O1,,ATCC 44859,MIC,31.25 µM
O=C(CC1=Nc2ccccc2C1)OC1CCN(CC(O)(Cn2cncn2)c2ccc(F)cc2F)CC1,broth dilution,Y0109,MIC80,0.126 µM
CC(=O)c1c(O)n(CCO)c(-c2ccccc2)nc1=S,,,MIC,>100 µg/mL
COc1ccc(-c2oc3ccc(C)cc3c2C(=O)c2cccc(OC)c2OC)cc1,broth dilution,,EC80,>200 µg/mL
CO[C@@]12OC(=O)C(C)=C1C1=C3[C@](C)([C@@H]4C[C@@H]4[C@@]3(O)C[C@@H]3[C@]14OC(=O)C1=C4C[C@H]4[C@](O)(COC(=O)/C(C)=C/COC(=O)CCC(=O)OC1)[C@H]1C[C@H]1[C@]34C)[C@H]2O,broth dilution,ATCC 90028,MIC,8 µg/mL
Cc1ccc(-c2cc(-c3cc4cc(F)ccc4oc3=O)nc(NS(=O)(=O)c3ccccc3)c2C#N)cc1,turbidity,MTCC 227,MIC,1000 µg/mL
CC(=O)OCCn1c(-c2ccccc2)nc(=S)c(C(C)=O)c1C,,,MIC,100 µg/mL
O=C(/C=C/c1ccccc1)OC1CCN(CC(O)(Cn2cncn2)c2ccc(F)cc2F)CC1,broth dilution,Y0109,MIC80,0.033 µM
CC1=CC[C@@H]2C[C@H]1C2(C)C,agar diffusion / agar,ATCC 10231,MIC,>20000 µg/mL
COCCn1c(-c2ccccc2)nc(=S)c(C(C)=O)c1O,,,MIC,>100 µg/mL
COc1ccc(-c2oc3ccc(C)cc3c2C(=O)c2cc(OC)cc(OC)c2)cc1,broth dilution,,EC80,>200 µg/mL
Oc1cc2ccccc2cc1-c1n[nH]c(=S)n1C1CCCCC1,,ATCC 2091,MIC,250 µg/mL
CC1=C2C3=C4[C@@](C)(C(=O)[C@]2(O)OC1=O)[C@@H]1C[C@@H]1[C@@]4(O)C[C@@H]1[C@]32OC(=O)C3=C2C[C@H]2[C@](O)(COC(=O)/C(C)=C/COC(=O)CCC(=O)OC3)[C@H]3C[C@H]3[C@]12C,broth dilution,ATCC 90028,MIC,8 µg/mL
Cc1ccc(/C=C/C(=O)OC2CCN(CC(O)(Cn3cncn3)c3ccc(F)cc3F)CC2)cc1,broth dilution,Y0109,MIC80,0.032 µM
N#Cc1c(-c2ccccc2)cc(-c2cc3cc(F)ccc3oc2=O)nc1NS(=O)(=O)c1ccccc1,turbidity,MTCC 227,MIC,1000 µg/mL
COc1ccc(-c2cc(-c3ccc(C)cc3)nc(NC(=O)CN3CCOCC3)n2)cc1,,,MIC,200 µg/mL
COc1ccc(-c2oc3ccc(C)cc3c2C(=O)c2cccc(OC)c2O)cc1,broth dilution,,EC80,>200 µg/mL
CC1C=C(c2cccc3ccccc23)C(=O)O1,,ATCC 44859,MIC,31.25 µM
O=C(OC1CCN(CC(O)(Cn2cncn2)c2ccc(F)cc2F)CC1)C(F)(F)F,broth dilution,Y0109,MIC80,2.304 µM
COC(=O)c1cc2ccccc2cc1-c1nn(C(C)=O)c(=S)n1-c1ccc(F)cc1,,ATCC 2091,MIC,500 µg/mL

The first 2 rows once more:

compound | method | strain or isolate | measure | value
CC1=CC[C@H]2C[C@@H]1C2(C)C | agar diffusion / agar | ATCC 10231 | MIC | 3125 µg/mL
NC(=S)c1cccc(-c2ccccn2)n1 |  | 17 strains | MIC | 12.5 µg/mL

Neighbouring rows are from separate reports. Blank or dashed fields: not listed here. Two numbers with a dash give a range or band. A number after MIC or MFC names an inhibition level or a share of isolates.